Experimental data published in paper PMC9637228, “Elucidating host cell response pathways and repurposing therapeutics for SARS-CoV-2 and other coronaviruses” (Scientific Reports, 2022).
Where a name gives a salt, the structure may show the parent alone. Read-outs that look alike come from different tables or passages of the source.

Columns and labels:
SARS-CoV-2 [1] = assay type: cell-based; conditions: SARS-CoV-2 in Vero cells
HCoV-229E = experiment: Anti-HCoV-229E compound testing in MRC5 cells (Cell-Titer Glo); assay type: cell-based; conditions: HCoV-229E in MRC5; ratio of CC50 to EC50
Experimental: (§1) Human lung fibroblast MRC5 cells were cultured in a 96-well plate at 10,000 cells/well in EMEM + 10% FBS overnight. The next day the culture medium was removed from each well and compounds in EMEM + 2% FBS + 0.5% DMSO were added. Each drug was tested on its own 96 well plate. Each plate contained 3 wells of uninfected cells without DMSO, 3 wells of uninfected cells with 0.5% DMSO, 3 wells of infected cells with no DMSO, and 3 wells of infected cells with 0.5% DMSO. Experimental compounds were tested in triplicate at each concentration. Tanespimycin, bortezomib, and homoharringtonine were tested using 2 µM starting concentration, 8-point, threefold serial dilution. After a 1-h pre-incubation with testing compounds, HCoV-229E or HCoV-OC43 viruses at an MOI of 0.01 were added to the culture with compounds for another 1 h. Cell-Titer Glo assay was added after additional incubation time with compounds of interest (HCoV-229E for 96 h and HCoV-OC43 for 120 h). Assay readout was performed using luminescence measurement on a Tecan Spark plate reader.
CC50 values were determined by applying nonlinear fit of luminescence readouts from uninfected, compound-treated wells against compound concentration. Likewise, EC50 values were determined by nonlinear fit of luminescence readouts from virus-infected, compound-treated wells. […] SI calculated as the ratio of CC50 to EC50.

HCoV-OC43 = experiment: Anti-HCoV-OC43 compound testing in MRC5 cells (Cell-Titer Glo); assay type: cell-based; conditions: ratio of CC50 to EC50
Experimental: as §1
CC50 values were determined by applying nonlinear fit of luminescence readouts from uninfected, compound-treated wells against compound concentration. Likewise, EC50 values were determined by nonlinear fit of luminescence readouts from virus-infected, compound-treated wells. Nonlinear regression models were applied for derivation of EC50 and CC50 values respectively, based on built-in equations of Prism Version 8.2.1 (GraphPad Software, San Diego, CA). SI calculated as the ratio of CC50 to EC50.

SARS-CoV-2 [2] = conditions: published preclinical studies; cited from earlier work

SMILES | SI index (SARS-CoV-2 [1]; Round 1) | SI index (SARS-CoV-2 [1]; Round 2) | SI index (SARS-CoV-2 [1]; Table 2 test) | other results
CC(C)C[C@H](NC(=O)[C@H](Cc1ccccc1)NC(=O)c1cnccn1)B(O)O [Bortezomib] | 35.93 | 14.63 | – | SI index (SARS-CoV-2 [1]; Round 1, listed as bortezomib): 35.9; SI index (HCoV-229E): 2; SI index (HCoV-OC43): < 1
Cc1nc(Nc2ncc(C(=O)Nc3c(C)cccc3Cl)s2)cc(N2CCN(CCO)CC2)n1 [Dasatinib] | 0.67 | – | – | –
CC(C)c1cc(-c2n[nH]c(=O)n2-c2ccc3c(ccn3C)c2)c(O)cc1O [Ganetespib] | – | 0.82 | – | –
COC(=O)C[C@](O)(CCCC(C)(C)O)C(=O)O[C@@H]1C(OC)=C[C@]23CCCN2CCc2cc4c(cc2[C@H]13)OCO4 [Homoharringtonine] | 12.84 | 24.06 | – | SI index (HCoV-229E): 4; SI index (HCoV-OC43): 1
CC(C)C[C@H](NC(=O)CNC(=O)c1cc(Cl)ccc1Cl)B(O)O [Ixazomib] | – | 4.27 | – | –
CCOC(=O)C1=C(C)NC(C)=C(C(=O)OCC)C1c1ccccc1/C=C/C(=O)OC(C)(C)C [Lacidipine] | 1.35 | – | – | –
CC[C@@H](C(N)=O)N1CCCC1=O [Levetiracetam] | – | – | 1.00 | –
Cc1cccc(C)c1OCC(=O)N[C@@H](Cc1ccccc1)[C@@H](O)C[C@H](Cc1ccccc1)NC(=O)[C@H](C(C)C)N1CCCNC1=O [Lopinavir] | – | 3.70 | 3.96 | –
O=C(Nc1ccc([N+](=O)[O-])cc1Cl)c1cc(Cl)ccc1O [Niclosamide] | – | – | – | reported SI index (SARS-CoV-2 [2]): 178.57
CCC(CC)COC(=O)[C@H](C)N[P@](=O)(OC[C@H]1O[C@@](C#N)(c2ccc3c(N)ncnn23)[C@H](O)[C@@H]1O)Oc1ccccc1 [Remdesivir] | 4.14 | 6.71 | 5.83 | –
O=C(O)c1ccccc1Nc1cccc(OCc2ccc3ccccc3n2)c1 [SR-2640 hydrochloride] | – | – | 2.06 | SI index (SARS-CoV-2 [1]; Table 2 test, listed as SR-2640): very poor
N[C@@H](CC(=O)N1CCn2c(nnc2C(F)(F)F)C1)Cc1cc(F)c(F)cc1F [Sitagliptin] | – | – | 1.00 | –
C=CCNC1=C2C[C@@H](C)C[C@H](OC)[C@H](O)[C@@H](C)/C=C(\C)[C@H](OC(N)=O)[C@@H](OC)/C=C\C=C(/C)C(=O)NC(=CC1=O)C2=O [Tanespimycin] | – | 1.60 | – | SI index (HCoV-OC43): 133
CC(=O)Nc1cccc(-n2c(=O)n(C3CC3)c(=O)c3c(Nc4ccc(I)cc4F)n(C)c(=O)c(C)c32)c1 [Trametinib] | 3.34 | – | – | –
CC[C@H]1CN2CCc3cc(OC)c(OC)cc3[C@@H]2C[C@@H]1C[C@H]1NCCc2cc(OC)c(OC)cc21 [emetine] | – | – | – | reported SI index (SARS-CoV-2 [2]): 176.65
